Target: His6-PA488–735 / GST-CMG2_38–218 interaction (UniProt P13423+P58335)
Format: biochemical, Bacillus anthracis PA / human CMG2

Chains of the proteins cited; added tags and fusions are not shown. Residues count along the entry.
UniProt P13423, 517-764 limits assumed: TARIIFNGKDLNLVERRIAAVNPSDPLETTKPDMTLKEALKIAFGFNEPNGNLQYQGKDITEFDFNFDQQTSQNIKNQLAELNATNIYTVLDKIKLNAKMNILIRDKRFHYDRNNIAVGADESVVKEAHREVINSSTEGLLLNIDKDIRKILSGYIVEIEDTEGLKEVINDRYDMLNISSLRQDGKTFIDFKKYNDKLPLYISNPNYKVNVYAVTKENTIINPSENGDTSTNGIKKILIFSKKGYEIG
UniProt P58335, 38-218 limits assumed: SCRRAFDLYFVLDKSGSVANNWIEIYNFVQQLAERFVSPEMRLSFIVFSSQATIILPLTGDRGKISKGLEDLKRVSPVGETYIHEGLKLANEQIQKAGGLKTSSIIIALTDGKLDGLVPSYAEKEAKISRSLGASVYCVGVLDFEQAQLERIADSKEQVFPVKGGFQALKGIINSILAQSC

FCRTL was tested, and the “IC50 for disruption of the interaction of His6-PA488–735 and GST-CMG2_38–218” value was “does not inhibit”.

— paper PMC5465072 (Scientific Reports, 2017)
